{"source": "paper PMC3360003", "about": "“Dissection of Influenza A Virus M1 Protein: pH-Dependent Oligomerization of N-Terminal Domain and Dimerization of C-Terminal Domain” (2012)", "key": {"[1]": {"biological_target": "M1C, C-terminal domain of M1 (residues 165-252) (Influenza A virus A/chicken/Jiangsu/1/1998 (H9N2))", "assay": "AUC"}, "[2]": {"biological_target": "M1C, C-terminal domain of M1 (residues 165-252) (Influenza A virus A/chicken/Jiangsu/1/1998 (H9N2))", "assay": "cross-linking"}}, "data": [{"substance": "M1C, C-terminal domain of M1 (residues 165-252) (domain or fragment)", "values": [{"measurement": "stoichiometry N", "setting": "[1]", "value": 2}, {"measurement": "stoichiometry N", "setting": "[2]", "value": 2}]}]}
